Compound potency records, mixed from different reports. Data source: NIAID ChemDB in PubChem.

Shared fields: tests in culture; organism: Hepatitis C virus; cells: Huh7; read-out: EC50

An empty or dashed field is not shown.

SMILES,strain or isolate,mutations,read by,value
CNC(=O)c1c(-c2ccc(F)cc2)oc2cc(N(CC(O)c3ccc(F)cc3)S(C)(=O)=O)c(OC(C)C)cc12,-,-,replicon,<1 µM
O=C(Cc1ccccc1)N/N=C/c1ccccc1OS(=O)(=O)c1ccc(Cl)c(Cl)c1,-,-,replicon,<5 µM
C=CC1CC1(NC(=O)[C@@H]1C[C@@H](OC(=O)Nc2cc(C)ccc2F)CN1C(=O)[C@@H](NC(=O)OC(C)(C)C)C(C)(C)C)C(=O)NS(=O)(=O)C1CC1,1b,-,replicon,0.1–1 µM
COC(=O)c1ccc2c(C3CCCCC3)c3n(c2c1)CC(C(=O)N1C[C@@H](C)O[C@@H](C)C1)=Cc1ccccc1-3,-,-,replicon,1–10 µM
C=C[C@@H]1C[C@]1(NC(=O)[C@@H]1C[C@@H](Oc2cc(-c3ccccc3)nc3cc(OC)ccc23)CN1C(=O)[C@@H](NC(=O)OCCCC)C(C)(C)C)C(=O)NS(=O)(=O)C1CC1,1b,-,replicon,<0.05 µM
O=C(C1=Cc2ccccc2-c2c(C3CCCCC3)c3ccc(C(=O)N4CCOCC4)cc3n2C1)N1CCOCC1,-,-,replicon,1–10 µM
CCOc1nc(N)nc2ccc(-c3cccc(NS(C)(=O)=O)c3)nc12,-,-,replicon,<0.3 µM
C=C[C@@H]1C[C@]1(NC(=O)[C@@H]1C[C@@H](Oc2cc(-c3ccccc3)nc3cc(OC)ccc23)CN1C(=O)[C@@H](N)C(C)(C)C)C(=O)NS(=O)(=O)C1CC1,1b,-,replicon,<5 µM
COc1cccc(OCC(=O)N/N=C/c2ccccc2OS(=O)(=O)c2ccc(C(F)(F)F)cc2)c1,-,-,replicon,<5 µM
CCC[C@@H](NC(=O)c1ccc2c(c1)nc(-c1ccoc1)n2C1CCCCC1)C(=O)Nc1ccc(/C=C/C(=O)O)cc1,-,-,-,≤5 µM
CNC(=O)c1c(-c2ccc(F)cc2)oc2cc(NC3=C(C)NOC3C)c(OC(C)C)cc12,-,-,replicon,>30 µM
C=C1C[C@]1(NC(=O)[C@@H]1C[C@@H](Oc2cc(-c3ccccc3)nc3cc(OC)ccc23)CN1C(=O)[C@@H](NC(=O)OC(C)(C)C)C(C)(C)C)C(=O)NS(=O)(=O)c1cccc(C(F)(F)F)c1,1b,-,replicon,<0.5 µM
Cc1c(C(=O)O)sc2ccc(NC(=O)C3(NC(=O)c4ccc5c(c4)nc(-c4ccoc4)n5C4CCCCC4)CCCC3)cc12,-,-,-,≤5 µM
COc1cccc(CC(=O)N/N=C/c2c(Br)ccc(OC)c2OS(=O)(=O)c2ccc(C(F)(F)F)cc2)c1,-,-,replicon,<5 µM
CCC(=O)Nc1ccc(-c2ccc3nc(N)nc(OCCOC)c3n2)cc1,-,-,replicon,0.3–1 µM
Cc1cc(-c2nnc(NC3CC(O)(C(F)F)C3)o2)nc2c(C(C)(C)C)cc(NCC(F)(F)F)cc12,GT 1b WT,-,-,0.00008 µM
O=C(Cc1ccccc1)N/N=C/c1ccccc1OS(=O)(=O)c1cccc(C(F)(F)F)c1,-,-,replicon,5–50 µM
C=CC1CC1(NC(=O)[C@@H]1C[C@@H](OC(=O)Nc2cc(C(F)(F)F)ccc2-n2cccc2)CN1C(=O)[C@@H](NC(=O)OC(C)(C)C)C(C)(C)C)C(=O)NS(=O)(=O)C1CC1,1b,-,replicon,0.1–1 µM
O=C(O)/C=C/c1ccc(NC(=O)C2(NC(=O)c3ccc4c(C5CCCCC5)c5n(c4c3)CCCc3ocnc3-5)CCCC2)cc1,-,-,replicon,0.01–1 µM
C[C@H](NC(=O)c1ccc2c(c1)nc(-c1ccoc1)n2C1CCCCC1)C(=O)Nc1ccc(/C=C/C(=O)O)cc1,-,-,-,5–50 µM
C=CC1CC1(NC(=O)[C@@H]1C[C@@H](OC(=O)Nc2ccccc2C(=O)OC)CN1C(=O)[C@@H](NC(=O)OC(C)(C)C)C(C)(C)C)C(=O)NS(=O)(=O)C1CC1,1b,-,replicon,<0.1 µM
COC(=O)c1ccc2c(C3CCCCC3)c3n(c2c1)CC(=O)N3,-,-,replicon,1–10 µM
C=CC1CC1(NC(=O)[C@@H]1C[C@@H](OC(=O)Nc2sccc2C(=O)OC)CN1C(=O)[C@@H](NC(=O)OC(C)(C)C)C(C)(C)C)C(=O)NS(=O)(=O)C1CC1,1b,-,replicon,0.1–1 µM
Cc1cc(-c2nnc(N[C@@H]3CCC[C@H](O)C3)o2)nc2c(C(C)(C)C)cc(NCC(F)(F)F)cc12,WT 1b,-,luciferase,0.0001 µM
CC(C)(C)N=C1SC(c2ccc(NC(=O)[C@H]3CCCN3C(=O)OCc3ccccc3)cc2)C(=O)N1Cc1ccccn1,-,-,replicon,0.1–1 µM
COc1cccc(CC(=O)N/N=C/c2cc(F)ccc2OS(=O)(=O)c2ccc(C(F)(F)F)cc2)c1,-,-,replicon,<5 µM
CC(C)(C)OC(=O)N1CCn2c(c(C3CCCCC3)c3ccc(C(=O)NS(C)(=O)=O)cc32)-c2ccccc21,-,-,replicon,0.01–1 µM
O=C(Nc1ccc(C2SC(=Nc3cccnc3)N(Cc3cccc(F)c3)C2=O)cc1)[C@@H]1CCCN1C(=O)Cc1ccccc1,-,-,replicon,<0.1 µM
C[C@H]1CCC[C@H](C)C1n1c(-c2ccoc2)nc2cc(C(=O)NC3(C(=O)Nc4ccc(/C=C/C(=O)O)cc4)CCCC3)ccc21,-,-,-,≤5 µM
C=C[C@@H]1C[C@]1(NC(=O)[C@@H]1C[C@@H](Oc2cc(-c3ccccc3)nc3cc(OC)ccc23)CN1C(=O)[C@@H](NC(=O)OC(C)(C)C)C(C)(C)C)C(=O)NS(=O)(=O)CCC,1b,-,replicon,<0.5 µM
C=CCN(c1cc2oc(-c3ccc(F)cc3)c(C(=O)NC)c2cc1OC(C)C)S(C)(=O)=O,-,-,replicon,<1 µM
COc1c(-c2ccc3cc(NS(C)(=O)=O)ccc3c2)cc(-n2ccc(=O)[nH]c2=O)cc1C(C)(C)C,genotype 1a H77,Y448H,luciferase,0.936 µM
CC(C)(N)C(=O)Nc1ccc(-c2ccc3nc(N)nc(NCCS(C)(=O)=O)c3n2)cc1,-,-,replicon,<0.3 µM
Cc1cc(NC(=O)C2(NC(=O)c3ccc4c(c3)nc(-c3ccoc3)n4C3CCCCC3)CCCC2)ccc1/C=C/C(=O)O,-,-,-,≤5 µM
O=C(O)/C=C/c1ccc(NC(=O)C2(NC(=O)c3ccc4c(C5CCCCC5)c5n(c4c3)CCCc3cc(O)ccc3-5)CCCC2)cc1,-,-,replicon,0.01–1 µM
CNC(=O)c1c(-c2ccc(N)cc2)oc2ccc(OC(C)C)cc12,-,-,replicon,<30 µM
C=CC1CC1(NC(=O)[C@@H]1C[C@@H](OC(=O)Nc2ccccc2N2CCOCC2)CN1C(=O)[C@@H](NC(=O)OC(C)(C)C)C(C)(C)C)C(=O)NS(=O)(=O)C1CC1,1b,-,replicon,0.1–1 µM
O=C(Nc1ccc(C2SC(=Nc3ccc(N4CCOCC4)cc3)N(Cc3ccccn3)C2=O)cc1)[C@H]1CCCN1C(=O)Cc1ccccc1Cl,-,-,replicon,<0.1 µM
CNC(=O)c1c(-c2ccc(F)cc2)oc2cc(-c3c(C)noc3COC)c(OC)cc12,-,-,replicon,<1 µM
COCCNc1nc(N)nc2ccc(-c3ccc(NC(=O)C(C)C)cc3)nc12,-,-,replicon,<0.3 µM
CNC(=O)c1c(-c2ccc(F)cc2)oc2cc(NS(=O)(=O)CCCCl)c(OC(C)C)cc12,-,-,replicon,<1 µM
C[C@@H](NC(=O)OCc1ccccc1)C(=O)Nc1ccc(C2SC(=Nc3cc(F)cc(F)c3)N(Cc3ccco3)C2=O)cc1,-,-,replicon,0.1–1 µM
C=CC1CC1(NC(=O)[C@@H]1C[C@@H](OC(=O)N(c2ccccc2)c2ccccc2)CN1C(=O)[C@@H](NC(=O)OC(C)(C)C)C(C)(C)C)C(=O)NS(=O)(=O)C1CC1,1b,-,replicon,0.1–1 µM
C=C[C@@H]1C[C@]1(NC(=O)[C@@H]1C[C@@H](Oc2cc(-c3ccccc3)nc3cc(OC)ccc23)CN1C(=O)[C@@H](NC)C(C)(C)C)C(=O)NS(=O)(=O)C1CC1,1b,-,replicon,<5 µM
CNC(=O)c1c(-c2ccc(F)cc2)oc2cc(-c3cc(CO)on3)c(OC(C)C)cc12,-,-,replicon,<1 µM
C=C[C@@H]1C[C@]1(NC(=O)[C@@H]1C[C@@H](Oc2cc(-c3ccccc3)nc3cc(OC)ccc23)CN1C(=O)[C@@H](NC(=O)OC(C)(C)C)C(C)(C)C)C(=O)NS(=O)C(C)(C)C,1b,-,replicon,<5 µM
CNC(=O)c1c(-c2ccc(F)cc2)oc2cc(-c3cccnc3)c(OC(C)C)cc12,-,-,replicon,<10 µM
C=C[C@@H]1C[C@]1(NC(=O)[C@@H]1C[C@@H](Oc2cc(-c3ccccc3)nc3cc(OC)ccc23)CN1C(=O)[C@@H](NC(=O)OC(C)(C)C)C(C)(C)C)C(=O)NS(=O)(=O)c1ccc(Cl)cc1,1b,-,replicon,<0.5 µM
COC(=O)c1ccc2c(C3CCCCC3)c3n(c2c1)CC(C(=O)O)Cc1ccccc1-3,-,-,replicon,>10 µM
C=CC1CC1(NC(=O)[C@@H]1C[C@@H](OC(=O)N2CCc3ccccc32)CN1C(=O)[C@@H](NC(=O)OC(C)(C)C)C(C)(C)C)C(=O)NS(=O)(=O)C1CC1,1b,-,replicon,0.1–1 µM
CNC(=O)c1c(-c2ccc(F)cc2)oc2cc(-c3ncn[nH]3)c(OC)cc12,-,-,replicon,<1 µM
C=CC1CC1(NC(=O)[C@@H]1C[C@@H](OC(=O)Nc2onc(C)c2C)CN1C(=O)[C@@H](NC(=O)OC(C)(C)C)C(C)(C)C)C(=O)NS(=O)(=O)C1CC1,1b,-,replicon,>10 µM
CCOc1nc(N)nc2ccc(-c3ccc(NS(=O)(=O)CC)cc3)nc12,-,-,replicon,>1 µM

For reference, 6 entries again:

| SMILES | strain or isolate | mutations | read by | value |
|---|---|---|---|---|
| C=CC1CC1(NC(=O)[C@@H]1C[C@@H](OC(=O)Nc2cc(C(F)(F)F)ccc2-n2cccc2)CN1C(=O)[C@@H](NC(=O)OC(C)(C)C)C(C)(C)C)C(=O)NS(=O)(=O)C1CC1 | 1b | - | replicon | 0.1–1 µM |
| C=C[C@@H]1C[C@]1(NC(=O)[C@@H]1C[C@@H](Oc2cc(-c3ccccc3)nc3cc(OC)ccc23)CN1C(=O)[C@@H](NC(=O)OC(C)(C)C)C(C)(C)C)C(=O)NS(=O)(=O)CCC | 1b | - | replicon | <0.5 µM |
| Cc1cc(-c2nnc(N[C@@H]3CCC[C@H](O)C3)o2)nc2c(C(C)(C)C)cc(NCC(F)(F)F)cc12 | WT 1b | - | luciferase | 0.0001 µM |
| Cc1cc(-c2nnc(NC3CC(O)(C(F)F)C3)o2)nc2c(C(C)(C)C)cc(NCC(F)(F)F)cc12 | GT 1b WT | - | - | 0.00008 µM |
| C=CC1CC1(NC(=O)[C@@H]1C[C@@H](OC(=O)N(c2ccccc2)c2ccccc2)CN1C(=O)[C@@H](NC(=O)OC(C)(C)C)C(C)(C)C)C(=O)NS(=O)(=O)C1CC1 | 1b | - | replicon | 0.1–1 µM |
| C=C[C@@H]1C[C@]1(NC(=O)[C@@H]1C[C@@H](Oc2cc(-c3ccccc3)nc3cc(OC)ccc23)CN1C(=O)[C@@H](NC(=O)OC(C)(C)C)C(C)(C)C)C(=O)NS(=O)(=O)c1ccc(Cl)cc1 | 1b | - | replicon | <0.5 µM |

Lines come from different laboratories, so protocols vary. ECn: concentration that inhibits the pathogen or its effect by n%. a–b is a range or a potency band.